Data published in paper PMC12305662, “Fragment-Based Development of Small Molecule Inhibitors Targeting Mycobacterium tuberculosis Cholesterol Metabolism” (Journal of Medicinal Chemistry, 2025).

Amino acid sequences for entries named in this document (tags omitted). A change or cut given only in a name is not applied to a line headed by its entry.
UniProt P9WPL5: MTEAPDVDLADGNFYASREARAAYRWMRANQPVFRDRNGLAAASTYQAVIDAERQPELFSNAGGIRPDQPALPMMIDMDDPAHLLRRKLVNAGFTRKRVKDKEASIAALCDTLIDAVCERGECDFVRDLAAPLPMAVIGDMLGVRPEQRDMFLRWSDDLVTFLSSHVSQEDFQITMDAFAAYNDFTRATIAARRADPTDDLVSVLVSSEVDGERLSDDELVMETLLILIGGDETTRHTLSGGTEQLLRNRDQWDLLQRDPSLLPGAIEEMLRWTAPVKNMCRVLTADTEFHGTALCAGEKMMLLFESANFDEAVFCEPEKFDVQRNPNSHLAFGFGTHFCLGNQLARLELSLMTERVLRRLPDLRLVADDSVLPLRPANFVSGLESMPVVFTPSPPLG

Key:
CYP142 [1] = molecular target: T1, CYP142 (Mycobacterium tuberculosis, UniProt P9WPL5)
CYP142 [2] = molecular target: T1, CYP142; remark: listed apart in the source

c1ccc(Cc2ccncc2)cc1 [1a]
CYP142 Δλmax (nm) (CYP142 [1]): 2 nm | KD (μM) CYP142 (CYP142 [2]): 180 ± 6.6 µM
